According to ChEMBL document CHEMBL3797190, “Development of 3,5-Dinitrobenzylsulfanyl-1,3,4-oxadiazoles and Thiadiazoles as Selective Antitubercular Agents Active Against Replicating and Nonreplicating Mycobacterium tuberculosis” (J Med Chem, 2016):

Legend:
[1] = system: Mycobacterium tuberculosis; details: 234/2005
[2] = system: Mycobacterium tuberculosis; details: Praha 4

Sequence: GENTAMICIN
- MIC>99 [1]: 0.25 µM
- MIC>99 [2]: 0.5 µM
